{"source": "PubChem BioAssay AID624099 | ICCB-Longwood | 2012", "assay": "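Host factors E2 relies on to silence an HPV18 LCR reporter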 (primary screen)", "cells": "human C33A cervical carcinoma cells (HPV-negative) stably expressing BPV1 E2 and an HPV18 LCR luciferase reporter", "reagent": "siRNA pool against human genes, 40 nM", "duration": "72 h", "read-out": "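HPV18 LCR reporter light per well, converted to plate-wise z-scores that exclude control wells, and averaged over triplicate plates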", "scale": "mean z-score and z-score: higher = stronger reporter signal, weaker E2 silencing", "call rule": "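Hit if mean z-score reaches 2 and two or more of three replicate z-scores also reach 2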", "note": "Here is an unselected part of about 21,000 reagents. 497 of them (2.4%) count as active. 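Higher z means weaker E2 silencing; only reporter increases were scored, and knock-downs that hurt cell survival may mask genuine repressor factors.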 No sequences are given here."}
{"gene":"CABS1","PubChem SID":"SID134322493","mean z-score":1.17,"z-score, replicate A":1.6,"z-score, replicate B":0.75,"z-score, replicate C":1.17,"Outcome":"inactive"}
{"gene":"L3MBTL3","PubChem SID":"SID134326149","mean z-score":-0.42,"z-score, replicate A":-0.31,"z-score, replicate B":-0.73,"z-score, replicate C":-0.21,"Outcome":"inactive"}
{"gene":"GZMK","PubChem SID":"SID134311318","mean z-score":0.93,"z-score, replicate A":0.8,"z-score, replicate B":0.81,"z-score, replicate C":1.19,"Outcome":"inactive"}
{"gene":"MESD","PubChem SID":"SID134328568","mean z-score":1.06,"z-score, replicate A":1.22,"z-score, replicate B":1.28,"z-score, replicate C":0.69,"Outcome":"inactive"}
{"gene":"PRSS47P","PubChem SID":"SID134326491","mean z-score":0.9,"z-score, replicate A":0.89,"z-score, replicate B":0.66,"z-score, replicate C":1.14,"Outcome":"inactive"}
{"gene":"C1orf53","PubChem SID":"SID134327060","mean z-score":0.49,"z-score, replicate A":0.73,"z-score, replicate B":0.66,"z-score, replicate C":0.08,"Outcome":"inactive"}
{"gene":"GRIN2D","PubChem SID":"SID134311617","mean z-score":0.28,"z-score, replicate A":0.23,"z-score, replicate B":0.24,"z-score, replicate C":0.38,"Outcome":"inactive"}
{"gene":"BLK","PubChem SID":"SID56478485","mean z-score":0.19,"z-score, replicate A":0.06,"z-score, replicate B":0.27,"z-score, replicate C":0.25,"Outcome":"inactive"}
{"gene":"MEGF6","PubChem SID":"SID134325193","mean z-score":1.29,"z-score, replicate A":1.56,"z-score, replicate B":1.31,"z-score, replicate C":0.99,"Outcome":"inactive"}
{"gene":"LINC01599","PubChem SID":"SID134325226","mean z-score":0.74,"z-score, replicate A":0.76,"z-score, replicate B":0.52,"z-score, replicate C":0.94,"Outcome":"inactive"}
{"gene":"SCPEP1","PubChem SID":"SID134311452","mean z-score":0.27,"z-score, replicate A":-0.34,"z-score, replicate B":0.26,"z-score, replicate C":0.88,"Outcome":"inactive"}
{"gene":"CEP152","PubChem SID":"SID134325332","mean z-score":-1.14,"z-score, replicate A":-1.19,"z-score, replicate B":-1.06,"z-score, replicate C":-1.16,"Outcome":"inactive"}
{"gene":"SERPINA10","PubChem SID":"SID134324680","mean z-score":-1.16,"z-score, replicate A":-1.25,"z-score, replicate B":-1.09,"z-score, replicate C":-1.15,"Outcome":"inactive"}
{"gene":"GAB2","PubChem SID":"SID134316726","mean z-score":-0.69,"z-score, replicate A":-0.26,"z-score, replicate B":-1.09,"z-score, replicate C":-0.73,"Outcome":"inactive"}
{"gene":"H4C1","PubChem SID":"SID134315792","mean z-score":-0.82,"z-score, replicate A":-1.18,"z-score, replicate B":-0.65,"z-score, replicate C":-0.63,"Outcome":"inactive"}
{"gene":"REEP1","PubChem SID":"SID134318407","mean z-score":0.76,"z-score, replicate A":0.55,"z-score, replicate B":0.79,"z-score, replicate C":0.94,"Outcome":"inactive"}
{"gene":"EEF1G","PubChem SID":"SID134321477","mean z-score":0.87,"z-score, replicate A":0.9,"z-score, replicate B":0.89,"z-score, replicate C":0.82,"Outcome":"inactive"}

2 successive records from above:
{"gene":"SCPEP1","PubChem SID":"SID134311452","mean z-score":0.27,"z-score, replicate A":-0.34,"z-score, replicate B":0.26,"z-score, replicate C":0.88,"Outcome":"inactive"}
{"gene":"CEP152","PubChem SID":"SID134325332","mean z-score":-1.14,"z-score, replicate A":-1.19,"z-score, replicate B":-1.06,"z-score, replicate C":-1.16,"Outcome":"inactive"}

The results go on.
{"gene":"SPATA31G1","PubChem SID":"SID134329377","mean z-score":0.08,"z-score, replicate A":0.46,"z-score, replicate B":0.14,"z-score, replicate C":-0.36,"Outcome":"inactive"}
{"gene":"H2BC14","PubChem SID":"SID134315778","mean z-score":-0.7,"z-score, replicate A":-0.89,"z-score, replicate B":-0.57,"z-score, replicate C":-0.64,"Outcome":"inactive"}
{"gene":"LOC391733 (retired record)","PubChem SID":"SID134327504","mean z-score":0.14,"z-score, replicate A":-0.14,"z-score, replicate B":0.21,"z-score, replicate C":0.36,"Outcome":"inactive"}
{"gene":"OR1Q1","PubChem SID":"SID134326472","mean z-score":-0.86,"z-score, replicate A":-0.92,"z-score, replicate B":-0.89,"z-score, replicate C":-0.77,"Outcome":"inactive"}
{"gene":"UGT2B17","PubChem SID":"SID134323926","mean z-score":-0.31,"z-score, replicate A":-0.31,"z-score, replicate B":-0.32,"z-score, replicate C":-0.3,"Outcome":"inactive"}
{"gene":"PDIA3","PubChem SID":"SID134310014","mean z-score":-0.22,"z-score, replicate A":-0.16,"z-score, replicate B":-0.47,"z-score, replicate C":-0.02,"Outcome":"inactive"}
{"gene":"GNG12","PubChem SID":"SID134324257","mean z-score":-0.1,"z-score, replicate A":-0.2,"z-score, replicate B":0.06,"z-score, replicate C":-0.16,"Outcome":"inactive"}
{"gene":"USP37","PubChem SID":"SID134311506","mean z-score":-1.48,"z-score, replicate A":-1.52,"z-score, replicate B":-1.42,"z-score, replicate C":-1.5,"Outcome":"inactive"}
{"gene":"SGSH","PubChem SID":"SID134313890","mean z-score":0.49,"z-score, replicate A":0.3,"z-score, replicate B":0.83,"z-score, replicate C":0.34,"Outcome":"inactive"}
{"gene":"PELP1","PubChem SID":"SID134310489","mean z-score":0.68,"z-score, replicate A":0.75,"z-score, replicate B":0.81,"z-score, replicate C":0.47,"Outcome":"inactive"}
